From patent US20230067015A1, “SYSTEMS AND METHODS FOR ANTIBACTERIAL SUSCEPTIBILITY TESTING USING DYNAMIC LASER SPECKLE IMAGING” (The Penn State Research Foundation, priority 2020, published 2023)

Test system: E. coli K-12
Experiment: Mie scattering analysis of speckle intensity ratio / fitted particle size
Format: cell-based, Escherichia coli

Row | Compound | ratio of the 1,000th pixel to the 1st pixel (0.25 × MIC, t0) | ratio of the 1,000th pixel to the 1st pixel (0.25 × MIC, t1) | ratio of the 1,000th pixel to the 1st pixel (0.25 × MIC, t2) | ratio of the 1,000th pixel to the 1st pixel (0.25 × MIC, t3) | ratio of the 1,000th pixel to the 1st pixel (0.25 × MIC, t4) | ratio of the 1,000th pixel to the 1st pixel (0.5 × MIC, t0) | ratio of the 1,000th pixel to the 1st pixel (0.5 × MIC, t1) | ratio of the 1,000th pixel to the 1st pixel (0.5 × MIC, t2) | ratio of the 1,000th pixel to the 1st pixel (0.5 × MIC, t3) | ratio of the 1,000th pixel to the 1st pixel (0.5 × MIC, t4) | ratio of the 1,000th pixel to the 1st pixel (1 × MIC, t0) | ratio of the 1,000th pixel to the 1st pixel (1 × MIC, t1) | ratio of the 1,000th pixel to the 1st pixel (1 × MIC, t2) | ratio of the 1,000th pixel to the 1st pixel (1 × MIC, t3) | ratio of the 1,000th pixel to the 1st pixel (1 × MIC, t4) | ratio of the 1,000th pixel to the 1st pixel (2 × MIC, t0) | ratio of the 1,000th pixel to the 1st pixel (2 × MIC, t1) | ratio of the 1,000th pixel to the 1st pixel (2 × MIC, t2) | ratio of the 1,000th pixel to the 1st pixel (2 × MIC, t3) | ratio of the 1,000th pixel to the 1st pixel (2 × MIC, t4) | other results
1 | CC1(C)S[C@@H]2[C@H](NC(=O)[C@H](N)c3ccccc3)C(=O)N2[C@H]1C(=O)O [ampicillin, Ampicillin] | 3.131 | 3.831 | 4.303 | 4.332 | 4.496 | 3.221 | 3.85 | 4.191 | 4.556 | 4.466 | 2.738 | 3.547 | 3.82 | 3.2 | 2.856 | 2.407 | 3.418 | 2.76 | 2.442 | 2.201 | –
2 | gentamicin | 2.606 | 3.586 | 3.617 | 3.844 | 3.578 | 3.072 | 3.474 | 3.615 | 3.416 | 3.386 | 2.913 | 3.02 | 2.767 | 3.082 | 3.058 | 2.82 | 2.954 | 2.958 | 2.809 | 2.682 | change of the measured ratio (bacterial size) (over concentrations and time): no significant change
